Measured data: PubChem BioAssay AID624099 (ICCB-Longwood, 2012)
Screen: 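Human genes that papillomavirus E2 requires to repress the HPV18 LCR promoter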 (primary screen). Cells: human C33A cervical carcinoma cells (HPV-negative) stably expressing BPV1 E2 and an HPV18 LCR luciferase reporter. Reagent: siRNA pool against human genes, 40 nM. Timing: 72 h. Detection: 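HPV18 LCR reporter light per well, converted to plate-wise z-scores that exclude control wells, and averaged over triplicate plates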. Direction: mean z-score and z-score: higher = stronger reporter signal, weaker E2 silencing. Call rule: 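Hit if mean z-score reaches 2 and two or more of three replicate z-scores also reach 2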.
Shown is one part, drawn at random, of about 21,000 reagents. 497 of all reagents (2.4%) were called active. 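Higher z means weaker E2 silencing; only reporter increases were scored, and knock-downs that hurt cell survival may mask genuine repressor factors.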 The numbers tell different reagents against one gene apart.

| gene knocked down | pool no. | mean z-score | z-score, replicate A | z-score, replicate B | z-score, replicate C | Outcome |
| --- | --- | --- | --- | --- | --- | --- |
| ACOX1 | 1 | 0.78 | 0.6 | 0.74 | 1 | inactive |
| RPS2P6 | 1 | -0.14 | -0.29 | -0.21 | 0.07 | inactive |
| TRIM27 | 1 | -0.75 | -0.83 | -0.67 | -0.76 | inactive |
| CAMLG | 1 | 0.43 | 0.38 | 0.52 | 0.4 | inactive |
| IL17D | 1 | 0.7 | 0.81 | 0.79 | 0.49 | inactive |
| RESP18 | 1 | -2.76 | -2.88 | -2.19 | -3.21 | inactive |
| UBTFL7 | 1 | 0.07 | 0.09 | -0.13 | 0.26 | inactive |
| AP1B1 | 1 | 0.73 | 1.26 | 0.3 | 0.65 | inactive |
| OPRL1 | 1 | 0.35 | 0.43 | 0.42 | 0.21 | inactive |
| ARRDC1 | 1 | 2.43 | 2.45 | 2.81 | 2.03 | active |
| LOC390846 | 1 | 0.31 | 0.44 | -0.04 | 0.51 | inactive |
| ACOXL | 1 | 2.33 | 2.15 | 2.71 | 2.14 | active |
| SIRT4 | 1 | -0.65 | -1.28 | -0.5 | -0.15 | inactive |
| NUP62 | 1 | 0.45 | 0.56 | 0.36 | 0.43 | inactive |
| KCNC2 | 1 | 0.37 | 0.65 | 0.55 | -0.09 | inactive |
| HNRNPA2B1 | 1 | 2.06 | 2.31 | 1.87 | 1.99 | inactive |
| LNPEP | 1 | 0.81 | 0.69 | 0.88 | 0.85 | inactive |
| LNPEP | 2 | 0.22 | 0.18 | 0.37 | 0.11 | inactive |
| CYP2C19 | 1 | -0.32 | -0.26 | -0.46 | -0.25 | inactive |
| SH3BP5 | 1 | 2.65 | 2.98 | 2.42 | 2.54 | active |
| ADAM8 | 1 | -1.03 | -0.89 | -1.03 | -1.17 | inactive |
| CCDC190 | 1 | -0.11 | -0.39 | -0.02 | 0.07 | inactive |
| LOC401454 (retired record) | 1 | -0.75 | -0.59 | -0.61 | -1.04 | inactive |

Reformatted: results already given.
gene knocked down	pool no.	mean z-score	z-score, replicate A	z-score, replicate B	z-score, replicate C	Outcome
ACOXL	1	2.33	2.15	2.71	2.14	active
SIRT4	1	-0.65	-1.28	-0.5	-0.15	inactive
